{"source": "PubChem BioAssay AID449728", "about": "(The Scripps Research Institute Molecular Screening Center, 2010)", "note": "This is a selection; strong and weak results do not stand in their true shares. Activity calls are given as the source filed them.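 The calls were made as follows: active = inhibition above the campaign's mean inhibition across all tested compounds plus 3 SD (cut at about 9.9% in these data); inactive = the rest.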"}
{"assay": "E. coli V3065 growth inhibition, primary screen, counter-screen for AddAB inhibitor project, absorbance, OD600 (AID 449728);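 also: uninfected addAB+ strain grown without phage in ampicillin broth; 0% = DMSO wells and 100% = ciprofloxacin 0.95 µg/ml wells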", "details": "18 h, at 11.9 µM, stronger effect = higher value"}
{"smiles": "O=C(NCC1(N2CCCCC2)CCCCC1)c1cncc(Br)c1", "inhibition": "inactive: -0.88%"}
{"smiles": "CN1CCC(Nc2cccc(F)c2)CC1", "inhibition": "inactive: -0.25%"}
{"smiles": "COc1cc(OC)c(C(=O)NCC2(N(C)C)CCCCC2)cc1OC", "inhibition": "inactive: 0%"}
{"smiles": "O=C(NCC1(N2CCOCC2)CCCCC1)c1cc(F)c(F)cc1Cl", "inhibition": "inactive: -0.44%"}
{"smiles": "CC(C)c1ccc(NC2CCN(C(=O)OC(C)(C)C)CC2)cc1", "inhibition": "inactive: 0%"}
{"smiles": "COc1ccc(CN(CCCl)CCCl)cc1Cl", "inhibition": "inactive: 0.37%"}
{"smiles": "CN(C)c1cccc(C(=O)NCC2(N3CCCCC3)CCCCC2)c1", "inhibition": "inactive: -1.26%"}
{"smiles": "COc1cc(C(=O)NCC2(N3CCCCC3)CCCCC2)ccc1OC(F)F", "inhibition": "inactive: 0.77%"}
{"smiles": "O=C(NCC1(N2CCOCC2)CCCCC1)c1cc(=O)[nH]c2ccccc12", "inhibition": "inactive: -1.19%"}
{"smiles": "CN1CCN(CCOC(=O)C(O)(c2ccccc2)c2ccccc2)CC1", "inhibition": "inactive: 0.34%"}
{"smiles": "COc1ccc(NC2CCN(C(=O)OC(C)(C)C)CC2)cc1", "inhibition": "inactive: 1.26%"}
{"smiles": "O=C(NCC1(N2CCCCC2)CCCCC1)c1cccc(C(F)(F)F)c1", "inhibition": "inactive: -1.46%"}
{"smiles": "CCN1CCC(Nc2ccc(Cl)cc2)CC1", "inhibition": "inactive: -0.69%"}
{"smiles": "N#CC1(Nc2ccccc2)CCN(CCc2ccccc2)CC1", "inhibition": "inactive: 1.18%"}
{"smiles": "O=C(NCC1(N2CCCCC2)CCCCC1)c1cccc([N+](=O)[O-])c1", "inhibition": "inactive: 2.37%"}
{"smiles": "O=C(NCC1(N2CCCCC2)CCCCC1)c1ccc(OC(F)F)cc1", "inhibition": "inactive: -0.25%"}
{"smiles": "CCOC(=O)N1CCC(Nc2cccc(C)c2)CC1", "inhibition": "inactive: -0.17%"}
{"smiles": "Cc1ccc(OCC(C)C)c(CN(CCCl)CCCl)c1", "inhibition": "inactive: -0.17%"}
{"smiles": "O=C(NCC1(N2CCCCC2)CCCCC1)c1ccc(F)cc1", "inhibition": "inactive: 0.76%"}
{"smiles": "COc1ccc(NC2CCN(CCc3ccccc3)CC2)c(OC)c1", "inhibition": "inactive: 0.83%"}
{"smiles": "CCOc1ccc(C)cc1CN(CCCl)CCCl", "inhibition": "inactive: -2.47%"}
{"smiles": "O=C(OC1CN2CCC1CC2)C1c2ccccc2Oc2ccccc21", "note": "(stereo not drawn)", "inhibition": "inactive: -1.9%"}
{"smiles": "O=C(NCC1(N2CCCCC2)CCCCC1)c1ccc(Cl)s1", "inhibition": "inactive: 2.99%"}
{"smiles": "N#CC1(Nc2ccccc2)CCN(Cc2ccccc2)CC1", "inhibition": "inactive: 0.41%"}
{"smiles": "COc1ccc(Cl)cc1C(=O)NCC1(N2CCOCC2)CCCCC1", "inhibition": "inactive: -0.35%"}
{"smiles": "CCOC(=O)N1CCC(Nc2ccc(OC)cc2)CC1", "inhibition": "inactive: -1.22%"}
{"smiles": "O=C(NCC1(N2CCCCC2)CCCCC1)c1ccc(Cl)nc1", "inhibition": "inactive: -1.39%"}
{"smiles": "Cc1cc(C)cc(N(C(=O)c2ccccc2)C2CCN(C(=O)OC(C)(C)C)CC2)c1", "inhibition": "inactive: -1.73%"}
{"smiles": "O=C(NCC1(N2CCOCC2)CCCCC1)c1cc2ccccc2o1", "inhibition": "inactive: 1.02%"}
{"smiles": "CSc1ccccc1C(=O)NCC1(N2CCCCC2)CCCCC1", "inhibition": "inactive: -2.12%"}
{"smiles": "COc1ccc(C(=O)NCC2(N3CCCCC3)CCCCC2)cc1", "inhibition": "inactive: 3.14%"}
{"smiles": "CC(C)(C)OC(=O)N1CCC(N(C(=O)c2ccccc2)c2ccc(F)cc2)CC1", "inhibition": "inactive: 1.17%"}
{"smiles": "COc1ccc(C(=O)NCC2(N3CCCCC3)CCCCC2)c(OC)c1OC", "inhibition": "inactive: -1.35%"}
{"smiles": "O=C(NCC1(N2CCCCC2)CCCCC1)c1ccc(=O)[nH]c1", "inhibition": "inactive: 0.94%"}
{"smiles": "O=C(NCC1(N2CCCCC2)CCCCC1)c1cccs1", "inhibition": "inactive: 0.84%"}
{"smiles": "CN1CCC(Nc2ccc(Cl)cc2)CC1", "inhibition": "inactive: -0.52%"}
{"smiles": "CCCOc1ccc(C)cc1CN(CCCl)CCCl", "inhibition": "inactive: 1.96%"}
{"smiles": "COc1cc(OC)cc(C(=O)NCC2(N3CCOCC3)CCCCC2)c1", "inhibition": "inactive: -0.17%"}
{"smiles": "COc1cccc(C(=O)N(c2cc(C)cc(C)c2)C2CCN(C(=O)OC(C)(C)C)CC2)c1", "inhibition": "inactive: -0.63%"}
{"smiles": "CCC(CO)(C(=O)OC1CN2CCC1CC2)c1ccccc1", "note": "(stereo not drawn)", "inhibition": "inactive: 1.35%"}
{"smiles": "CC(C)(C)OC(=O)N1CCC(Nc2ccccc2)CC1", "inhibition": "inactive: 0.51%"}
{"smiles": "O=C(O)C1(Nc2ccccc2)CCN(Cc2ccccc2)CC1", "inhibition": "inactive: 1.81%"}
{"smiles": "CCCOc1ccc(C(=O)NCC2(N(C)C)CCCCC2)cc1", "inhibition": "inactive: 0%"}
{"smiles": "CCOc1ncccc1C(=O)NCC1(N2CCOCC2)CCCCC1", "inhibition": "inactive: -0.58%"}
{"smiles": "CN1CCC(Nc2ccc(F)c(Cl)c2)CC1", "inhibition": "inactive: 0.17%"}
{"smiles": "O=C(NCC1(N2CCCCC2)CCCCC1)c1ccco1", "inhibition": "inactive: -0.71%"}
{"smiles": "CN(C)c1ccc(C(=O)NCC2(N3CCCCC3)CCCCC2)cc1", "inhibition": "inactive: -2.01%"}
{"smiles": "CCN1CCC(Nc2cccc(F)c2)CC1", "inhibition": "inactive: -1.21%"}
{"smiles": "Cc1ccc(C(=O)NCC2(N3CCCCC3)CCCCC2)o1", "inhibition": "inactive: -3.21%"}
{"smiles": "Fc1ccccc1NC1CCN(Cc2ccccc2)CC1", "inhibition": "inactive: 2.38%"}
{"smiles": "COc1cc(OC)cc(C(=O)NCC2(N3CCCCC3)CCCCC2)c1", "inhibition": "inactive: 1.45%"}
{"smiles": "CN(C)C1(CNC(=O)c2cccc(C#N)c2)CCCCC1", "inhibition": "inactive: 1.09%"}
{"smiles": "c1ccc(CN2CCC(Nc3ccccc3)CC2)cc1", "inhibition": "inactive: -0.58%"}
{"smiles": "CCCN1CCC(Nc2cc(OC)cc(OC)c2)CC1", "inhibition": "inactive: 1.03%"}
{"smiles": "N#Cc1ccc(C(=O)NCC2(N3CCCCC3)CCCCC2)cc1", "inhibition": "inactive: -2.63%"}
{"smiles": "CC(C)(C)OC(=O)N1CCC(N(C(=O)c2ccccc2)c2ccc(Cl)cc2)CC1", "inhibition": "inactive: 1.72%"}
{"smiles": "O=C(OC1CN2CCC1CC2)C1c2ccccc2C=Cc2ccccc21", "note": "(stereo not drawn)", "inhibition": "inactive: -1.66%"}
{"smiles": "CCc1cc(C(=O)NCC2(N3CCCCC3)CCCCC2)sc1C", "inhibition": "inactive: 1.21%"}
{"smiles": "CCOC(=O)N1CCC(Nc2ccc(C)cc2)CC1", "inhibition": "inactive: -0.52%"}
{"smiles": "N/C(=N\\O)c1c(N)no[n+]1[O-]", "inhibition": "inactive: -0.18%"}
{"smiles": "COc1ccc(C(=O)NCC2(N3CCOCC3)CCCCC2)cc1OC", "inhibition": "inactive: 2.54%"}
{"smiles": "COc1cc(C(=O)NCC2(N3CCOCC3)CCCCC2)cc(OC)c1C", "inhibition": "inactive: 1.15%"}
{"smiles": "O=C(NCC1(N2CCOCC2)CCCCC1)c1cc(Br)ccc1Cl", "inhibition": "inactive: 0.35%"}
